Measurements taken from patent publication US9815864B2, “Substituted nucleosides, nucleotides and analogs thereof” (Alios BioPharma, Inc., priority 2013, dated 2017).

Chains of the proteins cited; added tags and fusions are not shown. Residues count along the entry.
UniProt P54634, 1190-1699 limits assumed: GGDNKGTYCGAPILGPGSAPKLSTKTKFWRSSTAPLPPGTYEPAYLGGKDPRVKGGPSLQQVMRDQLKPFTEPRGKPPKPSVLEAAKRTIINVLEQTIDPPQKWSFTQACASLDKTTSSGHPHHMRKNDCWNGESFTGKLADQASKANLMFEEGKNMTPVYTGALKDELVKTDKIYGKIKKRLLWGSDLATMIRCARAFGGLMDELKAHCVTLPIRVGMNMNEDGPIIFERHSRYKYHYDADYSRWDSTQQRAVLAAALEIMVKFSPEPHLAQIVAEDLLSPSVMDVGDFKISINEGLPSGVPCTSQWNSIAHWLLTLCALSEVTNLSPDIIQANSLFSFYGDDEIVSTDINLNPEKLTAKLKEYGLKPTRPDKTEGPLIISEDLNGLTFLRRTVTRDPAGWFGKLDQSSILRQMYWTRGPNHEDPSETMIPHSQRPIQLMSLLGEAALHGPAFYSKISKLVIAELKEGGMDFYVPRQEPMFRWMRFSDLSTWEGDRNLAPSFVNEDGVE

Target: Norovirus polymerase (NoVpol, genotype II) (Lordsdale virus, UniProt P54634)
Settings: 50 nM recombinant enzyme, 2.5 hours at 30° C.

SMILES | IC50 [µM]
[N-]=[N+]=NC[C@]1(COP(=O)(O)OP(=O)(O)OP(=O)(O)O)O[C@@H](n2cnc3c(=O)[nH]c(N)nc32)[C@H](F)[C@@H]1O | 1 to 10
C[C@@]1(O)[C@H](O)[C@@](CCl)(COP(=O)(O)OP(=O)(O)OP(=O)(O)O)O[C@H]1n1ccc(N)nc1=O | 1 to 10
